Only a part is listed here, and it is no random draw. Activity calls are given as the source filed them.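 How the source made its calls: active means growth inhibition at or above a cutoff equal to the mean over every tested compound plus 3 SD (cut at about 60% in these data); inactive means the rest.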
assay: growth inhibitors of E. coli tolC mutant, primary screen, strain BW25113 ΔtolC::kan, 384-well (AID 573); settings: OD615, stronger effect = higher value, screened at 10 µM (by protocol)
Summary of the method: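 Signal: optical density read at 615 nm; Assay system: E. coli ΔtolC::kan strain BW25113; Times: 20 h incubation with compound, 37 °C; Dosing: 10 µM final, single dose.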

Q: With N/C(=N\O)c1c(N)no[n+]1[O-] as the molecule, how does the growth inhibition read?
A: inactive: -17.2%

Q: Which growth inhibition does the source give for CCOc1ncccc1C(=O)NCC1(N2CCOCC2)CCCCC1 here?
A: inactive: 3.08%

Q: With CCC(CO)(C(=O)OC1CN2CCC1CC2)c1ccccc1 (configuration not stated) as the molecule, how does the growth inhibition read?
A: inactive: -21.2%

Q: For Fc1ccccc1NC1CCN(Cc2ccccc2)CC1, which growth inhibition is on record?
A: inactive: 16.4%

Q: For COc1ccc(NC2CCN(CCc3ccccc3)CC2)c(OC)c1, which growth inhibition is on record?
A: inactive: -14.9%

Q: Which growth inhibition does the source give for O=C(OC1CN2CCC1CC2)C1c2ccccc2Oc2ccccc21 (configuration not stated) here?
A: inactive: -4.04%

Q: For N#CC1(Nc2ccccc2)CCN(CCc2ccccc2)CC1, which growth inhibition is on record?
A: inactive: -29.6%
